System: HEL
Experiment: Compound was evaluated for inhibitory activity against varicella zoster virus thymidine kinase (VZV TK-) 07/1 strain; NA=not active; call rule not given here
Assay type: functional, cell-based, Homo sapiens
Method in brief: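 HEL cell cultures, grown to confluence, received 100 CCID50 of virus. After 1 h adsorption, the inoculum was removed and the cultures were incubated with serial concentrations of compound (400, 200, 100, ... μg/mL).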

Nc1ncnc2c1ncn2CCOCP(=O)(O)O [ADEFOVIR]
EC50: Not Active

From ChEMBL document CHEMBL1132160, “Structure-antiviral activity relationship in the series of pyrimidine and purine N-[2-(2-phosphonomethoxy)ethyl] nucleotide analogues. 1. Derivatives substituted at the carbon atoms of the base” (J Med Chem, 1999)
